Measurements reported in PubChem BioAssay AID1259414 (Drosophila RNAi Screening Center, 2018).
The screen tested about 24,000 reagents; below is a random part of those that have a named target and a result. Over the whole deposit, about 1,210 (5%) were called active. 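Inactive calls also include excluded dsRNAs with several or no targets, genes unexpressed in JW18, and well A1, regardless of score.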

Aim: 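Genome-wide screen for host control of endosymbiont load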 (primary screen)
Cell system: Drosophila JW18 cells infected with Wolbachia
Reagents: long dsRNA against Drosophila genes, 0.25 µg dsRNA per well of a 384-well plate
Time to read-out: 5 days
Challenge: cells persistently infected with Wolbachia before knock-down; no added drug
Measured: 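Imaged fluorescence in situ signal for Wolbachia 23S rRNA per DAPI-counted host cell, given as a robust z-score within each plate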
Direction: Wolbachia per cell robust z: higher = more Wolbachia per host cell than the plate typical
Hit rule: 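Hit when robust z is 1.5 or more, or -1.5 or less, in at least two of three replicates; excludes dsRNAs with several or no targets, genes not expressed in JW18 and well A1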

Which result is listed for Tbc1d8-9 [DRSC11820]?
Wolbachia per cell robust z, rep 1: 0.494; Wolbachia per cell robust z, rep 2: 0.741; Wolbachia per cell robust z, rep 3: -0.462; call: inactive

For tub [DRSC12389], how do the results read?
Wolbachia per cell robust z, rep 1: -2.02; Wolbachia per cell robust z, rep 2: -0.812; Wolbachia per cell robust z, rep 3: -1.1; call: inactive

For tub [DRSC22800], what does the deposit list?
Wolbachia per cell robust z, rep 1: 0.342; Wolbachia per cell robust z, rep 2: -0.0985; Wolbachia per cell robust z, rep 3: 0.531; call: inactive

For CG4098 [DRSC10399], how do the results read?
Wolbachia per cell robust z, rep 1: 0.249; Wolbachia per cell robust z, rep 2: 0.335; Wolbachia per cell robust z, rep 3: -0.788; call: inactive

What did the screen give for CG10317 [DRSC14229]?
Wolbachia per cell robust z, rep 1: -2.6; Wolbachia per cell robust z, rep 2: -0.00316; Wolbachia per cell robust z, rep 3: -0.161; call: inactive

How did the screen score mbl [DRSC23188]?
Wolbachia per cell robust z, rep 1: 0.682; Wolbachia per cell robust z, rep 2: 0.983; Wolbachia per cell robust z, rep 3: 0.905; call: inactive

What did the screen give for mbl [DRSC28319]?
Wolbachia per cell robust z, rep 1: -1.86; Wolbachia per cell robust z, rep 2: -1.68; Wolbachia per cell robust z, rep 3: -2.07; call: active

What did the screen give for Cp7Fb [DRSC18034]?
Wolbachia per cell robust z, rep 1: 0.163; Wolbachia per cell robust z, rep 2: -0.149; Wolbachia per cell robust z, rep 3: 0.137; call: inactive

With CG15773 [DRSC18079], how do the results read?
Wolbachia per cell robust z, rep 1: -0.986; Wolbachia per cell robust z, rep 2: 0.546; Wolbachia per cell robust z, rep 3: 0.24; call: inactive

For Oxp [DRSC06712], what was measured?
Wolbachia per cell robust z, rep 1: 0.773; Wolbachia per cell robust z, rep 2: -4.24; Wolbachia per cell robust z, rep 3: -0.845; call: inactive

For CG34229 [DRSC06316], what was measured?
Wolbachia per cell robust z, rep 1: 1.14; Wolbachia per cell robust z, rep 2: 0.264; Wolbachia per cell robust z, rep 3: 1.32; call: inactive

For CG34229 [DRSC41469], what was measured?
Wolbachia per cell robust z, rep 1: -0.677; Wolbachia per cell robust z, rep 2: 0.6; Wolbachia per cell robust z, rep 3: -1.12; call: inactive

For kek2 [DRSC03552], what does the deposit list?
Wolbachia per cell robust z, rep 1: -3; Wolbachia per cell robust z, rep 2: 0.44; Wolbachia per cell robust z, rep 3: -0.316; call: inactive

With kek2 [DRSC26189], what was measured?
Wolbachia per cell robust z, rep 1: -0.418; Wolbachia per cell robust z, rep 2: 0.865; Wolbachia per cell robust z, rep 3: 1.12; call: inactive

With beta-Man [DRSC12208], what was measured?
Wolbachia per cell robust z, rep 1: 0.537; Wolbachia per cell robust z, rep 2: -1.69; Wolbachia per cell robust z, rep 3: 0.61; call: inactive

With beta-Man [DRSC12209], what does the deposit list?
Wolbachia per cell robust z, rep 1: 0.378; Wolbachia per cell robust z, rep 2: 1.7; Wolbachia per cell robust z, rep 3: 0.358; call: inactive

Which result is listed for Nopp140 [DRSC11872]?
Wolbachia per cell robust z, rep 1: -1.02; Wolbachia per cell robust z, rep 2: -0.775; Wolbachia per cell robust z, rep 3: -0.497; call: inactive

With Nopp140 [DRSC24599], what was measured?
Wolbachia per cell robust z, rep 1: -0.184; Wolbachia per cell robust z, rep 2: 1.94; Wolbachia per cell robust z, rep 3: 1.36; call: inactive

What is on record for Nopp140 [DRSC39061]?
Wolbachia per cell robust z, rep 1: 0.705; Wolbachia per cell robust z, rep 2: -0.128; Wolbachia per cell robust z, rep 3: -5.16; call: inactive

Which result is listed for CG12105 [DRSC08255]?
Wolbachia per cell robust z, rep 1: -0.321; Wolbachia per cell robust z, rep 2: 1.27; Wolbachia per cell robust z, rep 3: 2.03; call: inactive

How did the screen score CG12105 [DRSC24635]?
Wolbachia per cell robust z, rep 1: -0.0281; Wolbachia per cell robust z, rep 2: 0.587; Wolbachia per cell robust z, rep 3: -1.67; call: inactive

With Cul2 [DRSC03710], how do the results read?
Wolbachia per cell robust z, rep 1: 0.0998; Wolbachia per cell robust z, rep 2: 0.23; Wolbachia per cell robust z, rep 3: 0.422; call: inactive

Which result is listed for CG14687 [DRSC14910]?
Wolbachia per cell robust z, rep 1: -0.585; Wolbachia per cell robust z, rep 2: -2.01; Wolbachia per cell robust z, rep 3: -0.497; call: inactive

Which result is listed for CG14687 [DRSC29639]?
Wolbachia per cell robust z, rep 1: -0.0281; Wolbachia per cell robust z, rep 2: 0.46; Wolbachia per cell robust z, rep 3: -0.186; call: inactive
